A mixed list of measured activities; the numbers were collected in NIAID ChemDB.

Common to all: growth or infection tests; agent: Candida albicans

ECn: concentration that inhibits the pathogen or its effect by n%.

| compound | strain or isolate | endpoint | read by | value |
|---|---|---|---|---|
| C=C1[C@@H](C)CC[C@@]2(C)[C@H]1CC=C1CO[C@@H](O)[C@@]12O | B311 | MIC |  | 50 µg/mL |
| CC1=CC2OC(=O)[C@@]3(C)CCC[C@@](C)([C@@H]23)[C@H]1CCO | CECT 1394 | MIC |  | >100 µg/mL |
| Clc1ccc(C(c2c[nH]cc2-c2ccc(-c3ccccc3)cc2)n2ccnc2)c(Cl)c1 |  | MIC |  | 4.3 µg/mL |
| C[C@H]1CC[C@@]2(C)[C@@H](CC=C3CO[C@@H](O)[C@@]32O)C12CO2 | B311 | MIC |  | 50 µg/mL |
| NC(=S)N/N=C/c1ccsc1/C=N/NC(N)=S | ATCC 66396 | MIC80 | broth dilution | >250 µg/mL |
| Cc1ccc(S(=O)(=O)N/N=C2\CC[C@@]3(C)C(C2)C[C@@H](O)C2C3CC[C@]3(C)[C@@H]([C@H](C)CCCC(C)C)CC[C@@H]23)cc1 | CIP 1180-79 | MIC |  | >50 µg/mL |
| CCc1ccc(-c2nc3cc(NC(=O)CCC4CCCCC4)ccc3o2)cc1 |  | MIC |  | 50 µg/mL |
| CC(=O)Oc1ccc(C(Br)C(Br)c2ccc([N+](=O)[O-])cc2[N+](=O)[O-])cc1 | PCM 1409 PZH | MIC |  | 100 µg/mL |
| O=C(Nc1nc2ccc(NC(=O)[C@@H]3CCC[C@H](NCc4cccc5ccccc45)C3)cc2s1)C1CCCC1 |  | MIC |  | 0.78 µM |
| Cc1ccc(S(=O)(=O)N/N=C2C=C3/C(=N/NS(=O)(=O)c4ccc(C)cc4)CC4C(CC[C@]5(C)[C@@H]([C@H](C)CCCC(C)C)CC[C@@H]45)[C@@]3(C)CC/2)cc1 | CIP 1180-79 | MIC |  | >50 µg/mL |
| CC1CCc2cc(F)cc3c(=O)c(C(=O)O)cn1c23 | ATCC 10231 | EC50 |  | >100 µM |
| O/N=C1\CC(c2ccccc2)Oc2cc(O)cc(O)c21 |  | EC50 |  | 48.98 µg/mL |
| CC(C)[C@@H]1CC=CC2C3[C@](C)(CC[C@@]21CBr)[C@@H](Br)CC[C@@]3(C)O | ATCC 10231 | EC50 |  | >100 µM |
| CCn1cc(-c2ccc(Cl)cc2)c(C(c2ccc(Cl)cc2Cl)n2ccnc2)c1 |  | MIC |  | 0.31 µg/mL |
| CCCCCCCCCCCCCC#CC1=N[C@H]1C(=O)OC | ATCC 14503 | MIC |  | 4–5 µg/mL |
| COC(Cn1cc(-c2ccc(Cl)cc2)c(C(c2ccc(Cl)cc2Cl)n2ccnc2)c1)OC |  | MIC |  | 0.48 µg/mL |
| O=C(Nc1ccc2oc(-c3ccccc3)nc2c1)C1CCCCC1 |  | MIC |  | 25 µg/mL |
| c1ccc(C(c2ccn(-c3ccccc3)c2)n2ccnc2)cc1 |  | MIC |  | 2.3 µg/mL |
| COc1cc(OC)c2c(c1)OC(c1ccccc1)CC2=O |  | EC50 |  | >50 µg/mL |
| Cc1ccc(S(=O)(=O)N/N=C2\CC3C(CC[C@]4(C)[C@@H]([C@H](C)CCCC(C)C)CC[C@@H]34)[C@@]3(C)CC[C@H](O)CC23)cc1 | CIP 1663-86 | MIC |  | 1.5 µg/mL |
| C[C@@]12CCC[C@]3(C)C4=CC(=O)OCC4=CC(OC1=O)[C@@H]23 | CECT 1394 | MIC |  | >100 µg/mL |
| Cc1ccc(S(=O)(=O)N/N=C2/C=C3C[C@@H](O)CC[C@]3(C)C3CC[C@]4(C)[C@@H]([C@H](C)CCCC(C)C)CC[C@H]4C23)cc1 | CIP 1663-86 | MIC |  | 1.5 µg/mL |
| CCCCCCCCCCCCC/C=C\C1=NC1C(=O)OC | UCD-FR1 | MIC |  | 2 µg/mL |
| O=C(CCC1CCCCC1)Nc1ccc2oc(-c3ccccc3)nc2c1 |  | MIC |  | 25 µg/mL |
| CCCCCCCCCCCCC/C=C/C1=N[C@H]1C(=O)OC | ATCC 14503 | MIC |  | 8–9 µg/mL |
| Cc1c(O)cccc1C(=O)N[C@@H](CSc1ccccc1)[C@H](O)CN1C[C@H]2CCCC[C@H]2C[C@H]1C(=O)NC(C)(C)C | I111A | MIC |  | >64 µg/mL |
| C=CCn1cc(-c2ccc(Cl)cc2Cl)c(C(c2ccc(Cl)cc2Cl)n2ccnc2)c1 |  | MIC |  | 0.12 µg/mL |
| C=C1C=C[C@@H]2[C@](C)(CCC[C@]2(C)C(=O)OC)[C@H]1CC(=O)OC | CECT 1394 | MIC |  | >100 µg/mL |
| O=C1CC(c2ccccc2)Oc2cc(O)cc(O)c21 |  | EC50 |  | >50 µg/mL |
| O=C(Nc1nc2ccc(NC(=O)[C@H]3CC[C@@H](NCc4ccc5ccccc5c4)C3)cc2s1)C1CCCC1 |  | MIC |  | >12.5 µM |
| CCCCCOc1ccc(-c2ccc(-c3ccc(C(=O)N[C@H]4C[C@@H](O)[C@@H](O)NC(=O)[C@@H]5[C@@H](O)[C@@H](C)CN5C(=O)[C@H]([C@H](C)O)NC(=O)[C@H]([C@H](O)[C@@H](O)c5ccc(O)cc5)NC(=O)[C@@H]5C[C@@H](O)CN5C(=O)[C@H]([C@H](C)O)NC4=O)cc3)cc2)cc1 | 99 isolates | MIC50 |  | 0.02 µg/mL |
| O=C(Nc1nc2ccc(NC(=O)[C@@H]3CCC[C@@H](NCc4ccc5ccccc5c4)C3)cc2s1)C1CCCC1 |  | MIC |  | 0.78 µM |
| Fc1ccc(-n2ccc(C(c3ccccc3)n3ccnc3)c2)cc1 |  | MIC |  | 4.1 µg/mL |
| CO[C@@H]1OC(=O)C=C2C1C=C1OC(=O)[C@@]3(C)CCC[C@@]2(C)[C@@H]13 | CECT 1394 | MIC |  | <6.25 µg/mL |
| Cc1ccc(CN(CC(O)C[N+](C)(C)C)[C@@H]2[C@@H](O)[C@H](O[C@@H]3O[C@H](COCC(=O)O)[C@@H](O[C@@H]4C[C@H](COCC(=O)O)[C@@H](C)[C@H](O)[C@H]4N(Cc4ccc(C)cc4)CC(O)C[N+](C)(C)C)[C@H](O)[C@H]3N(Cc3ccc(C)cc3)CC(O)C[N+](C)(C)C)[C@@H](COCC(=O)O)O[C@H]2C)cc1 | RCMB 05031 | MIC | broth dilution | 95.16 µg/mL |
| CC(C)CCC[C@@H](C)[C@H]1CC[C@H]2C3/C(=N/N)C=C4C[C@@H](O)CC[C@]4(C)C3CC[C@]12C | CIP 1180-79 | MIC |  | 25 µg/mL |
| O=C(Nc1ccc2oc(-c3ccc(F)cc3)nc2c1)C1CCCCC1 |  | MIC |  | 12.5 µg/mL |
| CC(C)[C@@H](C)[C@H](O)[C@@H]1CC23CC(=O)[C@]4(O)C(=C2CC[C@@H]3[C@@H]1C)C=C[C@]1(O)C[C@@H](O)CC[C@]41C | IFM 40009 | MIC |  | >80 µg/mL |
| O=C(Nc1nc2ccc(NC(=O)[C@H]3CCC[C@H](NCc4ccc5ccccc5c4)C3)cc2s1)C1CCCC1 |  | MIC |  | 6.25 µM |
| C[C@H]1[C@H](O)[C@@H](C)/C=C/C=C/C=C/C=C/C=C/C=C/C=C/[C@H](O[C@@H]2O[C@H](C)[C@@H](O)[C@H](N)[C@@H]2O)C[C@@H]2O[C@](O)(C[C@@H](O)C[C@@H](O)CC[C@H](O)[C@@H](O)C[C@@H](O)CC(=O)O[C@H]1C)C[C@H](O)[C@H]2C(=O)O | ATCC 10231 | EC50 |  | >100 µM |
| CC(C)CCC[C@@H](C)[C@H]1CC[C@H]2C3C/C(=N\Nc4ccccc4)C4C[C@@H](O)CC[C@]4(C)C3CC[C@]12C | CIP 1180-79 | MIC |  | 12.5 µg/mL |
| C[C@@H]1[C@@H](COCC(=O)O)C[C@@H](O[C@H]2[C@H](O)[C@@H](N(Cc3ccc(O)cc3)CC(O)C[N+](C)(C)C)[C@H](O[C@H]3[C@H](O)[C@@H](N(Cc4ccc(O)cc4)CC(O)C[N+](C)(C)C)[C@H](C)O[C@@H]3COCC(=O)O)O[C@@H]2COCC(=O)O)[C@H](N(Cc2ccc(O)cc2)CC(O)C[N+](C)(C)C)[C@H]1O | RCMB 05031 | MIC | broth dilution | 42.25 µg/mL |
| C=C1CC[C@@H]2[C@](C)(CCC[C@]2(C)C(=O)OC)[C@H]1CC(=O)OC | CECT 1394 | MIC |  | >100 µg/mL |
| O=C(CCNCc1ccc(-c2ccccc2)cc1)Nc1ccc2nc(NC(=O)C3CCCC3)sc2c1 |  | MIC |  | 6.25 µM |
| COc1ccc(CN(CC(O)C[N+](C)(C)C)[C@@H]2[C@@H](O)[C@H](O[C@@H]3O[C@H](COCC(=O)O)[C@@H](O[C@@H]4C[C@H](COCC(=O)O)[C@@H](C)[C@H](O)[C@H]4N(Cc4ccc(OC)cc4)CC(O)C[N+](C)(C)C)[C@H](O)[C@H]3N(Cc3ccc(OC)cc3)CC(O)C[N+](C)(C)C)[C@@H](COCC(=O)O)O[C@H]2C)cc1 | RCMB 05031 | MIC | broth dilution | 75 µg/mL |

The last 6 rows once more:

compound | strain or isolate | endpoint | read by | value
C[C@H]1[C@H](O)[C@@H](C)/C=C/C=C/C=C/C=C/C=C/C=C/C=C/[C@H](O[C@@H]2O[C@H](C)[C@@H](O)[C@H](N)[C@@H]2O)C[C@@H]2O[C@](O)(C[C@@H](O)C[C@@H](O)CC[C@H](O)[C@@H](O)C[C@@H](O)CC(=O)O[C@H]1C)C[C@H](O)[C@H]2C(=O)O | ATCC 10231 | EC50 |  | >100 µM
CC(C)CCC[C@@H](C)[C@H]1CC[C@H]2C3C/C(=N\Nc4ccccc4)C4C[C@@H](O)CC[C@]4(C)C3CC[C@]12C | CIP 1180-79 | MIC |  | 12.5 µg/mL
C[C@@H]1[C@@H](COCC(=O)O)C[C@@H](O[C@H]2[C@H](O)[C@@H](N(Cc3ccc(O)cc3)CC(O)C[N+](C)(C)C)[C@H](O[C@H]3[C@H](O)[C@@H](N(Cc4ccc(O)cc4)CC(O)C[N+](C)(C)C)[C@H](C)O[C@@H]3COCC(=O)O)O[C@@H]2COCC(=O)O)[C@H](N(Cc2ccc(O)cc2)CC(O)C[N+](C)(C)C)[C@H]1O | RCMB 05031 | MIC | broth dilution | 42.25 µg/mL
C=C1CC[C@@H]2[C@](C)(CCC[C@]2(C)C(=O)OC)[C@H]1CC(=O)OC | CECT 1394 | MIC |  | >100 µg/mL
O=C(CCNCc1ccc(-c2ccccc2)cc1)Nc1ccc2nc(NC(=O)C3CCCC3)sc2c1 |  | MIC |  | 6.25 µM
COc1ccc(CN(CC(O)C[N+](C)(C)C)[C@@H]2[C@@H](O)[C@H](O[C@@H]3O[C@H](COCC(=O)O)[C@@H](O[C@@H]4C[C@H](COCC(=O)O)[C@@H](C)[C@H](O)[C@H]4N(Cc4ccc(OC)cc4)CC(O)C[N+](C)(C)C)[C@H](O)[C@H]3N(Cc3ccc(OC)cc3)CC(O)C[N+](C)(C)C)[C@@H](COCC(=O)O)O[C@H]2C)cc1 | RCMB 05031 | MIC | broth dilution | 75 µg/mL

Lines come from different laboratories, so protocols vary. a–b is a range or a potency band. Blank or dashed fields: not listed here. MIC50, MIC90 and the like: level of inhibition, or share of isolates inhibited.